Literature values as cited in patent publication US20260382535A1, “DELIVERY DEVICES FOR ANTI-HIV COMPOUNDS” (published 2026).
Where two headings read alike, the source gives them in different places.

What was measured:
[1] = tested on: HIV-1; conditions: 0.1 nM plasma concentration target
[2] = tested on: reverse transcriptase; conditions: background
[3] = human

C#C[C@]1(CO)O[C@@H](n2cnc3c(N)nc(F)nc32)C[C@@H]1O
reduction in plasma HIV1-RNA [1]: greater than a one-log reduction in plasma HIV1-RNA
barrier to resistance [2]: high barrier to resistance
potency [2]: high potency
clearance in humans [3]: extended clearance in humans
clearance in humans ([3]; listed as Islatravir): slow human clearance
